Measured values from several laboratories, pooled; numbers as filed in NIAID ChemDB.

Shared fields: growth or infection tests; agent: Cytomegalovirus; read-out: EC50

Rows are shuffled and stem from different studies.

SMILES,cell line,method,strain,value
CC1(C)[C@@H](CO)CC[C@@]1(C)Cn1nnc2c(=O)[nH]cnc21,HEL,cytopathic effect,DAVIS,>50 µg/mL
Nc1ncnc2c1ncn2C[C@@H](CO)OCP(=O)(O)O,HEL,cytopathic effect,AD169,1.4 µM
O=S(=O)(Cc1ccccc1Oc1ccccc1)c1cccc[n+]1[O-],HEL,cytopathic effect,-,>5 µg/mL
CCCCCCCCCCc1nccn(CCCCO)c1=O,MRC-5,cytopathic effect,-,>10 µM
Nc1nc2c(ncn2C[C@H]2CCC[C@H]2CO)c(=O)[nH]1,HEL,plaque count,DAVIS,>50 µg/mL
Nc1nc2c(ncn2C[C@@H](CO)OCP(=O)(O)O)c(=O)[nH]1,HEL,cytopathic effect,AD169,0.66 µM
Cc1cn([C@@H]2O[C@H](CO)[C@](O)(C(F)(F)F)[C@H]2O)c(=O)[nH]c1=O,VERO,cytopathic effect,DAVIS,>50 µg/mL
Cc1ccc(C(=O)Nc2ccc(S(=O)(=O)O)c3cc(S(=O)(=O)O)cc(S(=O)(=O)O)c23)cc1NC(=O)c1cccc(NC(=O)Nc2cccc(C(=O)Nc3cc(C(=O)Nc4ccc(S(=O)(=O)O)c5cc(S(=O)(=O)O)cc(S(=O)(=O)O)c45)ccc3C)c2)c1,MRC-5,plaque count,AD169,21 µM
O=C1O/C(=C\Cn2ccc(=O)[nH]c2=O)C(O)=C1O,HEL,-,-,>50 µg/mL
O=c1c2ncn(COC(CO)CO)c2nc2[nH]c(-c3ccccc3)cn12,HEL,plaque count,AD169,20 µg/mL
Nc1ncnc2c1ncn2C[C@H](CO)OCP(=O)(O)O,HEL,cytopathic effect,AD169,231 µM
CC(C)Nc1nc2cc(Cl)c(Cl)cc2n1[C@H]1O[C@@H](CO)[C@H](O)[C@@H]1O,-,plaque count,Clinical isolates,0.12–0.56 µM
O=C(CCCCCCCCC(=O)Nc1cc(S(=O)(=O)O)cc2cc(S(=O)(=O)O)cc(O)c12)Nc1cc(S(=O)(=O)O)cc2cc(S(=O)(=O)O)cc(O)c12,MRC-5,plaque count,AD169,43 µM
OC[C@H]1O[C@@H](n2c(CCc3ccccn3)nc3cc(Cl)c(Cl)cc32)[C@H](O)[C@@H]1O,HEL,cytopathic effect,-,>100 µg/mL
COc1ccc(C)cc1CSc1cccc[n+]1[O-],HEL,cytopathic effect,-,>50 µg/mL
CC1(C)[C@@H](CCO)C[C@H]1n1nnc2c(N)ncnc21,HEL,plaque count,DAVIS,>20 µg/mL
Cc1ccc(C)c(CSc2ncccc2O)c1,HEL,cytopathic effect,-,>5 µg/mL
O=C1OC(C(O)Cn2cc(F)c(=O)[nH]c2=O)C(OCc2ccccc2)=C1OCc1ccccc1,HEL,-,-,>50 µg/mL
Nc1nc(Cl)c2ncn([C@H]3CO[C@@H](CO)C3)c2n1,HEL,cytopathic effect,AD169,>40 µg/mL
COc1ccc(OC)c(CS(=O)c2cccc[n+]2[O-])c1,HEL,cytopathic effect,-,>50 µg/mL
Nc1nc2c(ncn2C[C@H](CO)OCP(=O)(O)O)c(=O)[nH]1,HEL,cytopathic effect,AD169,0.56 µM
OC[C@H]1O[C@@H](n2c(SCc3ccccn3)nc3ccccc32)[C@H](O)[C@@H]1O,HEL,cytopathic effect,-,>100 µg/mL
Cc1ccc(C)c(C(C(N)=O)S(=O)(=O)c2cccc[n+]2[O-])c1,HEL,cytopathic effect,-,10 µg/mL
Nc1ncc2ncn(C[C@H](CF)OCP(=O)(O)O)c2n1,HEL,cytopathic effect,AD169,>300 µM
NC1=NS(=O)(=O)N(Cc2ccccc2)c2nc(Cc3ccccc3)[nH]c21,HEL,plaque count,DAVIS,6.1 µg/mL
COc1ccc(CS(=O)(=O)c2cccc[n+]2[O-])cc1OC,HEL,cytopathic effect,-,>50 µg/mL
Nc1nc2c(ncn2[C@@H]2C=C[C@H](CO)CC2)c(=O)[nH]1,-,-,-,1–10 µM
Cc1ccc(C)c(CSc2c(O)ccc[n+]2[O-])c1,HEL,cytopathic effect,-,>5 µg/mL
Nc1nc(N)c2ncn(C[C@H](CF)OCP(=O)(O)O)c2n1,HEL,cytopathic effect,AD169,>300 µM
OC[C@H]1O[C@@H](n2c(CCc3ccccn3)nc3ccccc32)[C@H](O)[C@@H]1O,HEL,cytopathic effect,-,>100 µg/mL
Cc1cn([C@H]2C[C@H](O[Si](C)(C)C(C)(C)C)[C@@H](/C=C\C#N)O2)c(=O)[nH]c1=O,HeLa,-,AD169,10–20 µM
N#C/C(=C/c1ccc(Cl)cc1Cl)Sc1cccc[n+]1[O-],HEL,cytopathic effect,-,1.2 µg/mL
Nc1nc(N)c2ncn(C[C@@H](CF)OCP(=O)(O)O)c2n1,HEL,cytopathic effect,AD169,>300 µM
COC(=O)C(c1cc(C)ccc1C)S(=O)(=O)c1cccc[n+]1[O-],HEL,cytopathic effect,-,>5 µg/mL
O=C(CCCCCCC(=O)Nc1cc(S(=O)(=O)O)cc2cc(S(=O)(=O)O)cc(O)c12)Nc1cc(S(=O)(=O)O)cc2cc(S(=O)(=O)O)cc(O)c12,MRC-5,plaque count,Isolate T-156,16 µM
Cc1ccc(C)c(C(CC(=O)O)S(=O)(=O)c2cccc[n+]2[O-])c1,HEL,cytopathic effect,-,24 µg/mL
OCCOCn1c(CCc2ccccn2)nc2ccccc21,HEL,cytopathic effect,-,>100 µg/mL
CCc1nc([N+](=O)[O-])c(Sc2ccccc2)n1Cc1ccccc1,HEL,cytopathic effect,DAVIS,1.3 µg/mL
Nc1ncnc2c1ncn2C[C@@H](CO)OCP(=O)(O)O,HEL,cytopathic effect,DAVIS,0.3 µg/mL
O=C1O/C(=C\Cn2ccc(=O)[nH]c2=O)C(OCc2ccccc2)=C1O,HEL,-,-,>50 µg/mL
CCCCCCCCCCCCCCCC(=O)Nc1cc(S(=O)(=O)O)cc2cc(S(=O)(=O)O)cc(O)c12,MRC-5,plaque count,AD169,33 µM
CC1(C)[C@@H](CO)CC[C@@]1(C)Cn1cnc2c(N)ncnc21,HEL,cytopathic effect,DAVIS,>50 µg/mL
CC1(C)[C@@H](CCO)C[C@H]1n1cnc2c(=O)[nH]c(N)nc21,HEL,plaque count,DAVIS,>50 µg/mL
Cc1nc(N2CCC[C@H]2COC(C)C)nc(-n2ccnc2)c1[N+](=O)[O-],-,-,-,0.13 µM
CC(=O)OCCOCN1c2nc(Cc3ccccc3)[nH]c2C(N)=NS1(=O)=O,HEL,plaque count,DAVIS,>50 µg/mL
CCCCCCCCOc1ccc(/C=C(/C#N)Sc2cccc[n+]2[O-])cc1,HEL,cytopathic effect,-,1.9 µg/mL
CCCCCCCCCCc1nccn(C(CO)OC(CO)CO)c1=O,MRC-5,cytopathic effect,-,50 µM
Cc1nc(N[C@H]2CCOC[C@@H]2C)nc(-n2ccnc2)c1[N+](=O)[O-],-,-,-,0.15 µM
Cc1ccc[n+]([O-])c1S(=O)(=O)Cc1cccc([N+](=O)[O-])c1C,HEL,cytopathic effect,-,>5 µg/mL
NC1=NC2C(C=CN2CC(CO)CCO)C(=O)N1,-,-,-,10–100 µM
Nc1ncnc2c1ncn2C[C@@H](CF)OCP(=O)(O)O,HEL,cytopathic effect,AD169,>300 µM
Nc1nc(N)c2ncn(C[C@H]3CCC[C@H]3CO)c2n1,HEL,plaque count,DAVIS,>50 µg/mL
CC1(C)[C@@H](CCO)C[C@H]1n1nnc2c(=O)[nH]cnc21,HEL,plaque count,AD169,>20 µg/mL
Nc1ncc2ncn(C[C@H]3CCC[C@H]3CO)c2n1,HEL,plaque count,DAVIS,>5 µg/mL
CC1(C)[C@@H](CO)CC[C@@]1(C)Cn1cc(Br)c(=O)[nH]c1=O,HEL,cytopathic effect,DAVIS,>50 µg/mL
Nc1ncc2c(ncn2COC(CO)CO)n1,-,-,-,0.1–1 µM
Nc1nc(Cl)c2ccn([C@H]3CO[C@@H](CO)C3)c2n1,HEL,cytopathic effect,DAVIS,>10 µg/mL
Nc1nc2c(ncn2C[C@@H](CF)OCP(=O)(O)O)c(=O)[nH]1,HEL,cytopathic effect,AD169,>300 µM
Nc1ncnc2c1ncn2C[C@H](O)CO,HEL,cytopathic effect,DAVIS,70 µg/mL

For reference, 6 entries again:

{"SMILES": "Cc1ccc(C)c(C(CC(=O)O)S(=O)(=O)c2cccc[n+]2[O-])c1", "cell line": "HEL", "method": "cytopathic effect", "value": "24 µg/mL"}
{"SMILES": "CC1(C)[C@@H](CO)CC[C@@]1(C)Cn1cnc2c(N)ncnc21", "cell line": "HEL", "method": "cytopathic effect", "strain": "DAVIS", "value": ">50 µg/mL"}
{"SMILES": "Nc1nc2c(ncn2C[C@@H](CO)OCP(=O)(O)O)c(=O)[nH]1", "cell line": "HEL", "method": "cytopathic effect", "strain": "AD169", "value": "0.66 µM"}
{"SMILES": "Cc1ccc(C)c(C(C(N)=O)S(=O)(=O)c2cccc[n+]2[O-])c1", "cell line": "HEL", "method": "cytopathic effect", "value": "10 µg/mL"}
{"SMILES": "CCc1nc([N+](=O)[O-])c(Sc2ccccc2)n1Cc1ccccc1", "cell line": "HEL", "method": "cytopathic effect", "strain": "DAVIS", "value": "1.3 µg/mL"}
{"SMILES": "Cc1nc(N2CCC[C@H]2COC(C)C)nc(-n2ccnc2)c1[N+](=O)[O-]", "value": "0.13 µM"}

Two numbers with a dash give a range or band. ECn is the concentration giving n% inhibition of infection, replication or growth. An empty or dashed field is not shown.